Patent US7338809B2, “Method for assaying whole blood” (Mitsubishi Kagaku Iatron, Inc., priority 2001, dated 2008)

Tested on: whole blood
Test: Example 4: visual inspection of reaction system, types and concentrations of detergents (hemolysis, adhesion, aggregation)
Settings: heparin whole blood stored overnight at 4° C.
[1] = detergent 0.01% upon mixing of whole blood
[2] = detergent 0.1% upon mixing of whole blood
[3] = detergent 0.5% upon mixing of whole blood
[4] = detergent 1% upon mixing of whole blood
[5] = detergent 10% upon mixing of whole blood

O=S(=O)([O-])CCC[n+]1ccccc1
Adhesion of magnetic particles to reaction vessel wall [1]: Present | Aggregation of magnetic particles [1]: Present | Adhesion of magnetic particles to reaction vessel wall [2]: Present | Aggregation of magnetic particles [2]: Present | Adhesion of magnetic particles to reaction vessel wall [3]: Absent | Aggregation of magnetic particles [3]: Present | Adhesion of magnetic particles to reaction vessel wall [4]: Absent | Aggregation of magnetic particles [4]: Absent | Adhesion of magnetic particles to reaction vessel wall [5]: Absent | Aggregation of magnetic particles [5]: Absent
